Measured values from several laboratories, pooled; numbers as filed in NIAID ChemDB.

Shared fields: whole-cell or culture tests; species: Toxoplasma gondii; endpoint: EC50

Lines come from different laboratories, so protocols vary. a–b is a range or a potency band. ECn is the concentration giving n% inhibition of infection, replication or growth. Blank or dashed fields: not listed here.

COc1c(N2C[C@@H]3C(CN)[C@@H]3C2)c(F)cc2c(=O)c(C(=O)O)cn(-c3ccc(F)cc3F)c12 ; value: 22 µg/mL
Nc1ccc(S(=O)(=O)Nc2ncc(O)cn2)cc1 ; value: >500 µg/mL
COc1c(N2C[C@@H]3C(N)[C@@H]3C2)c(F)cc2c(=O)c(C(=O)O)cn(C3CC3)c12 ; value: 1.3 µg/mL
CCc1nc(N)nc(N)c1-c1ccc(Cl)cc1 ; strain or isolate: RH ; value: 0.04 µg/mL
C[C@@H]1CN(c2c(F)c(N)c3c(=O)c(C(=O)O)cn(C4CC4)c3c2F)C[C@H](C)N1 ; value: 40 µg/mL
CN1CCC(c2cc(-c3ccncc3)c(-c3ccc(F)cc3)[nH]2)CC1 ; strain or isolate: RH (WILD TYPE) ; value: 0.2 µM
O=C1C(=O)c2ccccc2C(O)=C1C1CCC(c2ccc(Cl)cc2)CC1 ; strain or isolate: RH ; value: 0.001–0.1 µM
COc1ccc(OC)c(Cc2cnc3nc(N)nc(N)c3c2C)c1 ; strain or isolate: RH ; value: 0.0069 µg/mL
Cc1c2c(c[nH]c1=O)C(=O)c1cccc(O)c1C2=O ; value: 1.76 µg/mL
COc1cc2[nH]c(C)c(-c3ccc(Oc4ccc(OC(F)(F)F)cc4)cc3)c(=O)c2cc1F ; strain or isolate: 2F ; method: absorbance ; value: 0.000007 µM
O=C1C(=O)c2ccccc2C(O)=C1C1CCC(c2ccc(Cl)cc2)CC1 ; strain or isolate: RH ; value: 0.03 µM
Cc1[nH]c2nc(N)[nH]c(=O)c2c1CSc1ccncc1 ; value: 831 µM
Cn1cc2c(cc1=O)C(=O)c1ccccc1C2=O ; value: 1.94 µg/mL
CCCCCCCCCCC1SC(=O)C(CC)=C1O ; strain or isolate: RH ; value: 9.9 µM
Cc1cc2c(o1)C(=O)C=C(Br)C2=O ; value: 0.87 µg/mL
CCc1nc(N)nc(N)c1-c1ccc(Cl)cc1 ; strain or isolate: RH ; value: <0.47 µg/mL
COc1cccc2c1C(=O)C=CC2=O ; value: 2.3 µg/mL
COc1c(N2C[C@@H]3C(CN)[C@@H]3C2)c(F)cc2c(=O)c(C(=O)O)cn(C3CC3)c12 ; value: 30 µg/mL
COC(=O)c1ccnc2c1C(=O)c1c(O)cccc1C2=O ; value: 1 µg/mL
CCCCCCCCCCCCCCCCC1(C)SC(=O)C(CCC)=C1O ; strain or isolate: RH ; value: 1.96 µM

3 of the rows above, restated:

compound	strain or isolate	method	value
COC(=O)c1ccnc2c1C(=O)c1c(O)cccc1C2=O			1 µg/mL
COc1cc2[nH]c(C)c(-c3ccc(Oc4ccc(OC(F)(F)F)cc4)cc3)c(=O)c2cc1F	2F	absorbance	0.000007 µM
CCc1nc(N)nc(N)c1-c1ccc(Cl)cc1	RH		<0.47 µg/mL